From patent US7884199B2, “HCV NS3-NS4 protease resistance mutants” (priority 2003, dated 2011) come the findings set out here.

What all share (test): FRET enzyme assay, Ki
Format in all cases: biochemical

Test [1] has as its target T1, D168V mutant HCV NS3 serine protease domain (Hepatitis C virus genotype 1b, UniProt Q9WMX2, D1194V).
T1 construct: A DNA fragment encoding residues Ala^1-Ser^181 of the HCV NS3 protease (GenBank CAB46913); hexa-histidine (C); made in house; host or cells: E. coli BL21/DE3 pLysS

For test [2], the target named is T2, D168A mutant HCV NS3 serine protease domain (Hepatitis C virus genotype 1b, UniProt Q9WMX2, D1194A).
T2 construct: A DNA fragment encoding residues Ala^1-Ser^181 of the HCV NS3 protease (GenBank CAB46913); hexa-histidine (C); made in house; host or cells: E. coli BL21/DE3 pLysS

Test [3] addresses T3, A156V mutant HCV NS3 serine protease domain (Hepatitis C virus genotype 1b, UniProt Q9WMX2, A1182V).
T3 construct: A DNA fragment encoding residues Ala^1-Ser^181 of the HCV NS3 protease (GenBank CAB46913); hexa-histidine (C); made in house; host or cells: E. coli

Test [4] has as its target T4, A156S mutant HCV NS3 serine protease domain (Hepatitis C virus genotype 1b, UniProt Q9WMX2, A1182S).
T4 construct: A DNA fragment encoding residues Ala^1-Ser^181 of the HCV NS3 protease (GenBank CAB46913); hexa-histidine (C); made in house; host or cells: E. coli BL21/DE3 pLysS

The target in test [5] is T5, A156T mutant HCV NS3 serine protease domain (Hepatitis C virus genotype 1b, UniProt Q9WMX2, A1182T).
T5 construct: A DNA fragment encoding residues Ala^1-Ser^181 of the HCV NS3 protease (GenBank CAB46913); hexa-histidine (C); made in house; host or cells: E. coli

By Ki is commonly meant the equilibrium dissociation constant of an inhibitor or competing ligand from its target. Lower therefore signals tighter binding.

Entries after “also recorded” stand apart in the source; their conditions may differ.

Turning to BILN 2061, the Ki is more than 1.2 µM in test [1]; more than 1.2 µM in test [2]; more than 1.2 µM in test [3]; 0.112 µM in test [4]; more than 1.2 µM in test [5]. In addition, the “less susceptible as compared to the wild type protease” value in test [1] and in test [2] was “at least 63 fold” in each case. The “inhibition of the protease” value in test [1] (up to 1.2 μM BILN 2061), in test [2] (up to 1.2 μM BILN 2061), in test [3] (up to 1.2 μM BILN 2061) and in test [5] (up to 1.2 μM BILN 2061) was “not inhibited; also recorded: No inhibition” each time. Moreover, the “Ki higher / less susceptible as compared to the wild type protease” value in test [3] and in test [5] was “at least 63 fold” each time. Besides, in test [4], the “Ki higher than against the wild type protease” value came to 6 fold.
